Consider one substance from patent US20250297262A1, “REGULATION OF TYPE I IFN SIGNALING BY TARGETING A DECOY RECEPTOR” (THE REGENTS OF THE UNIVERSITY OF COLORADO A BODY CORPORATE, priority 2022, published 2025).

In this test the test system is delta variant of the SARS-COV2 virus (B.1.617.2). Kind of test: SARS-CoV-2 viral genome replication in A549-ACE2 cells pre-treated with IFNb (FIG. 31). It counts as cell-based.

For the substance “IFNb: type I interferon beta used to treat the cell lines”, the “antiviral response (viral genome replication, RT-qPCR)” value was “stronger antiviral response”.
